Pooled drug test results. Numbers come from NIAID ChemDB, via PubChem.

Common to all: growth or infection tests; species: Herpes simplex virus 2; read-out: EC50

Blank or dashed fields: not listed here.

| structure | strain or isolate | cell line | read by | value |
|---|---|---|---|---|
| Nc1nc2c(ncn2COCCO)c(=O)[nH]1 | X-79 | HFF | plaque count | 0.5 µg/mL |
| Nc1ncc2ncn(/C=C3\CC3CO)c2n1 |  |  | ELISA | >100 µM |
| CCCCc1cn([C@@H]2OC3COP(=O)(O)OC3[C@H]2O)c(=O)nc1N | LYONS |  |  | >400 µg/mL |
| O=C1C=C2[C@@H]3C4C(=CC(O)=CC4O[C@H]3c3ccc(O)cc3)C34C(c5ccc(O)cc5)[C@@H]3c3c(O)cc(O)cc3[C@@H]3[C@@H](c5ccc(O)cc5)[C@@H]1C(=O)C234 |  | VERO | MTT | 4.5 µM |
| O=C(C[C@H]1C(O)O[C@@H]2COC(=O)c3cc(Oc4c(C(=O)O)cc(O)c(O)c4O)c(O)c(O)c3C3=C(O)C(O)=C(O)C[C@H]3C(=O)O[C@H]2[C@@H]1OC(=O)c1cc(O)c(O)c(O)c1)c1cc(O)c(O)c(O)c1 |  | VERO | XTT | >200 µg/mL |
| Nc1nc2c(ncn2CCCCO)c(=O)[nH]1 | 91075 | SIRC | plaque count | 1.5 µM |
| Nc1ccn([C@H]2C[C@H](O)[C@@H](CO)O2)c(=O)n1 |  | HeLa | virus yield | <5 µM |
| Nc1nc2c(ncn2CC(CO)CCO)c(=O)[nH]1 | B4327 | VERO | plaque count | 14 µM |
| COc1cc(OC)c(NC(=S)Nc2ccc(NC=O)cc2Cl)cc1Cl | 12 | HFF | ELISA | 11 µg/mL |
| Oc1ccc([C@@H]2c3c(O)cc(O)cc3[C@H]3c4c(cc(O)cc4[C@H]2[C@@H]2c4cc(O)cc5c4[C@@H](c4cc(O)cc(O)c4[C@H]2c2ccc(O)cc2)[C@H](c2ccc(O)cc2)O5)O[C@@H]3c2ccc(O)cc2)cc1 |  | VERO | MTT | 3.7 µM |
| CCO/N=C/c1ccc(OCCC2CCN(c3ccc(Cl)nn3)CC2)cc1 | HGP | KB | neutral red | 0.001 µM |
| OC[C@H]1O[C@H](c2cc(F)c(F)cc2F)C[C@@H]1O | 196 | E6SM | cytopathic effect | >400 µg/mL |
| O=C(O[C@@H]1[C@@H](c2c(O)cc(O)c3c2O[C@H](c2cc(O)c(O)c(O)c2)[C@H](OC(=O)c2cc(O)c(O)c(O)c2)C3)c2c(O)cc(O)cc2O[C@@H]1c1cc(O)c(O)c(O)c1)c1cc(O)c(O)c(O)c1 | 196 | VERO | XTT | 5.3 µM |
| Cn1cc(C(=O)NCc2ccc(Cl)cc2)c(=O)c2cc(CN3CCOCC3)ccc21 | L6262351 (WILD TYPE) | HFF | plaque count | 3.2 µM |
| Cc1cc([C@H]2C[C@H](O)[C@@H](CO)O2)c(F)cc1Cl | LYONS | E6SM | cytopathic effect | >400 µg/mL |
| Oc1ccc([C@@H]2c3c(O)cc(O)cc3[C@@H]3c4c(cc(O)cc4[C@H]2[C@H]2c4cc(O)cc5c4[C@@H](c4cc(O)cc(O)c4[C@H]2c2ccc(O)cc2)[C@@H](c2ccc(O)cc2)O5)O[C@@H]3c2ccc(O)cc2)cc1 |  | VERO | MTT | 3.4 µM |
| O=c1ccn([C@H]2C[C@H](O)[C@@H](CO)O2)c(=O)[nH]1 |  | HeLa | virus yield | <50 µM |
| CC1(C)OC2C(O1)[C@@H](COS(=O)(=O)NC(=O)OC(COCc1ccccc1)OCc1ccccc1)O[C@H]2n1ccc(=O)[nH]c1=O |  | VERO | virus yield | 54 µg/mL |
| Nc1nc2c(ncn2C[C@@H](CO)CCO)c(=O)[nH]1 | R37 | HEL | cytopathic effect / ELISA | 2 µM |
| OC[C@H]1O[C@H](c2cc(Br)c(F)cc2F)C[C@@H]1O | LYONS | E6SM | cytopathic effect | >400 µg/mL |
| Nc1nc2c(ncn2COC(CO)CO)c(=O)[nH]1 | R37 | HEL | cytopathic effect / ELISA | 0.4 µM |
| Nc1nc2c(ncn2CC[C@@H](O)CO)c(=O)[nH]1 | 91075 | BHK | plaque count | 11 µM |
| Nc1ncc2ncn(/C=C3/CC3CO)c2n1 |  |  | ELISA | >100 µM |
| CCCCC(C)(C)[C@H](O)/C=C/[C@H]1C=CC(=O)[C@@H]1CCCCCCC(=O)O | H210 | VERO | hybridisation | 4.5 µg/mL |
| Oc1ccc([C@H]2Oc3cc(O)cc4c3[C@@H]2c2cc(O)cc3c2[C@@H](c2cc(O)cc5c2[C@@H]4[C@H](c2ccc(O)cc2)O5)[C@H](c2ccc(O)cc2)O3)cc1 |  | VERO | MTT | 4.2 µM |
| Nc1nc2c(ncn2CC(CO)CCO)c(=O)[nH]1 | R37 | HEL | cytopathic effect / ELISA | 32 µM |
| CC(C)c1cn([C@@H]2O[C@H](COP(=O)(O)O)[C@@H](O)[C@H]2O)c(=O)nc1N | 196 |  |  | >400 µg/mL |
| Oc1ccc([C@@H]2c3c(O)cc(O)cc3[C@H]3c4c(cc(O)c5c4[C@@H]2[C@H](c2ccc(O)cc2)[C@H]5c2cc(O)cc(O)c2)O[C@@H]3c2ccc(O)cc2)cc1 |  | VERO | MTT | 4.5 µM |
| Nc1nc2c(ncn2CCCC(CO)CO)c(=O)[nH]1 | R37 | HEL | cytopathic effect / ELISA | 15.2 µM |
| O=C(NCc1ccc(Cl)cc1)c1cn2c3c(cc(CN4CCOCC4)cc3c1=O)OC(c1cccnc1)C2 | G (WILD TYPE) | HFF | plaque count | >16.4 µM |
| Nc1nc2c(ncn2COCCO)c(=O)[nH]1 | 14875 MS2 (acyclovir-susceptible) | HFF | cytopathic effect | 1 µg/mL |
| CCCCCCc1cn([C@@H]2O[C@H](COP(=O)(O)O)[C@@H](O)[C@H]2O)c(=O)nc1N | 196 |  |  | >400 µg/mL |
| Nc1nc2c(ncn2C/C=C\CO)c(=O)[nH]1 | 72 | VERO | plaque count | 3.2 µM |
| Cc1cn([C@@H]2OC3COP(=O)(O)OC3[C@H]2O)c(=O)nc1N | 196 |  |  | >400 µg/mL |
| CC(C)NS(=O)(=O)OC[C@H]1O[C@@H](n2ccc(=O)[nH]c2=O)C2OC(C)(C)OC21 |  | VERO | virus yield | 25 µg/mL |

ECn: concentration that inhibits the pathogen or its effect by n%. Rows are shuffled and stem from different studies.